Anti-infective test results gathered from many reports (values: NIAID ChemDB through PubChem).

All rows: host cell toxicity; read-out: CC50

Rows are shuffled and stem from different studies. CCn is the concentration with n% toxicity to the cells. An empty or dashed field is not shown.

SMILES | method | cells | result
CC(C)(C)c1ccc(CNCCCNc2ccnc3cc(Cl)ccc23)cc1 | MTT | HepG2 cells | 2.173 µM
Nc1ncnc2c1ncn2/C=C1/CC1(CO)CO | - | MEF | >380 µM
CCOP(=O)(O)CCCOCn1c(Br)nc2c(=O)[nH]c(N)nc21 | visual reading | MRC-5 | 1146 µM
O=C1C[C@H](Cc2nc3ccccc3s2)N1C(=O)NCc1ccc([N+](=O)[O-])cc1 | MTT | COS-7 | >51 µM
Nc1nc2c(ncn2/C=C2/CC23COP(=O)(O)OC3)c(=O)[nH]1 | - | MEF | 301 µM
Cc1cnsc1CCCCCCOc1ccc2ccccc2c1 | crystal violet | WIS HELA | 50 µg/mL
CN(C)CC1NCCn2c1nc(C(=O)NCc1ccc(F)cc1)c(O)c2=O | microscopy | MT-4 | >1 µM
CCCCS(=O)(=O)Nc1ccc2[nH]c(C(=O)NCc3cccc(C)c3)c(C)c2c1 | resazurin | VERO | >120 µM
CCOC(=O)CCCCCOc1cccc(CN(C(=O)c2ccc(-c3cccc(OC)c3)cc2)C(C)C)c1 | - | BJ | >20 µM
Cc1cc(CCCCCCCOc2ccc(-n3cncn3)cc2)on1 | crystal violet | WIS HELA | 750 µg/mL
Nc1[nH]c(N=NC(=O)c2ccccn2)c2cccc(Sc3ccccc3F)c12 | - | L6 | 11 nM
Clc1ccc2c(NCCCNCc3ccccc3)ccnc2c1 | MTT | HepG2 cells | 2.906 µM
CCCCS(=O)(=O)Nc1ccc2[nH]c(C(=O)OCC)c(C)c2c1 | resazurin | VERO | >150 µM
CCOP(=O)(O)CCC(C)OCn1cnc2c(=O)[nH]c(N)nc21 | visual reading | MRC-5 | >2760 µM
CCCCS(=O)(=O)Nc1ccc2[nH]c(C(=O)NC3CC3)c(C)c2c1 | resazurin | VERO | >140 µM
COc1cc(-c2nnnn2S(=O)(=O)c2ccc(OC(F)(F)F)cc2)ccc1OCC(O)(Cn1cncn1)c1ccc(F)cc1F | MTT | CHO-K1 | 58.12 µg/mL
Nc1[nH]c(N=NC(=O)c2ccccn2)c2c(Sc3ccccc3)cccc12 | - | L6 | 237 nM
Cc1cc(C#N)cc(C)c1Oc1cc(Nc2ccc(C#N)cc2)nc2ccccc12 | MTT | HuCCA-1 | ≥50 µg/mL
CN1C=CN(c2cccc(N3C=CN(C)C3)n2)C1.[Cl][Au].[Cl][Au] | sulforhodamine / absorbance | PC-3 | >30 µM
Nc1[nH]c(N=NC(=O)c2ccccn2)c2cccc(Sc3ccc(F)cc3)c12 | - | L6 | 6 nM
CC(=O)N1CCn2c(nc(C(=O)NCc3ccc(F)cc3)c(O)c2=O)C(N(C)C(=O)C(=O)N(C)C)C1 | microscopy | MT-4 | >1 µM
CCOP(=O)(CCC(COC)OCn1cnc2c(=O)[nH]c(N)nc21)OCC | visual reading | MRC-5 | 611 µM
COc1cc(-c2nnnn2S(=O)(=O)c2ccc(Br)cc2)ccc1OCC(O)(Cn1cncn1)c1ccc(Cl)cc1Cl | MTT | CHO-K1 | 74.12 µg/mL
CCN1CCc2c(sc(NC(=O)c3c(F)c(F)c(F)c(F)c3F)c2C(N)=O)C1 | - | THP-1 human monocytic cells | 8.6 µM
CN(C)C(=O)C(=O)N1CCn2c(nc(C(=O)NCc3ccc(F)cc3)c(O)c2=O)C(N(C)C(=O)C(=O)N(C)C)C1 | microscopy | MT-4 | >1 µM
CC1CNC(=O)c2ccccc2SSc2ccccc2C(=O)N1 | MTT / microscopy | HuT-78 | >145 µM
CCOC(=O)c1[nH]c2ccc(N)cc2c1C | resazurin | VERO | 110 µM
Nc1[nH]c(N=NC(=O)c2ccccn2)c2c1ccc1ccccc12 | - | L6 | 68 nM
CCCCS(=O)(=O)Nc1ccc2[nH]c(C(=O)OC(C)(C)C)c(C)c2c1 | resazurin | VERO | 68 µM
N#Cc1ccc(Nc2cc(Oc3ccc(C#N)cc3)c3ccccc3n2)cc1 | XTT | MOLT-3 | ≥50 µg/mL
c1ccc2c(c1)oc1cc(OCCCCCCn3ccnc3)ccc12 | crystal violet | WIS HELA | 5 µg/mL
CC(C)N(Cc1cccc(OCCCCCC(=O)OC(=O)O)c1)C(=O)c1ccc(-c2c[nH]c3ccccc23)cc1 | - | BJ | >20 µM
CCOP(=O)(O)CCC(CO)OCn1cnc2c(=O)[nH]c(N)nc21 | visual reading | MRC-5 | >2800 µM
CN1CCn2c(nc(C(=O)NCc3ccc(F)cc3)c(O)c2=O)C1(C)C | microscopy | MT-4 | >1 µM
Nc1[nH]c(N=NC(=O)c2ccccn2)c2c(Sc3ccc(F)cc3)cccc12 | - | L6 | 102 nM
CN(C)C1COCCn2c1nc(C(=O)NCc1ccc(F)cc1)c(O)c2=O | microscopy | MT-4 | >1 µM
CC(C)Oc1cccc(-c2ccc(C(=O)N(Cc3cccc(OCCCCCC(=O)OC(=O)O)c3)C(C)C)cc2)c1 | - | BJ | >20 µM
Cn1nnc(C[C@H]2CC(=O)N2C(=O)NCc2ccc([N+](=O)[O-])cc2)n1 | MTT | COS-7 | >133 µM
COCCOc1cccc2c(N=NC(=O)c3ccccn3)[nH]c(N)c12 | - | L6 | 588 nM
CC(C)N(Cc1cccc(OCCCCCC(=O)OC(=O)O)c1)C(=O)c1ccc(-c2ccc3cc[nH]c3c2)cc1 | - | RAJI | >20 µM
CCOC(=O)c1c(NC(=O)c2c(F)c(F)c(F)c(F)c2F)sc2c1CCN(CC)C2 | - | THP-1 human monocytic cells | 6.2 µM
Cc1cn([C@H]2C[C@H](F)C(COP(=O)([O-])OP(=O)([O-])OC[C@H]3O[C@@H](n4cc(C)c(=S)[nH]c4=O)C[C@@H]3F)O2)c(=O)[nH]c1=S | MTT | CEM-T4 | >100 µM
CCCCS(=O)(=O)Nc1ccc2[nH]c(C(=O)NCc3cccc(Cl)c3)c(C)c2c1 | resazurin | VERO | >110 µM
COc1ccncc1CNCCCNc1ccnc2cc(Cl)ccc12 | MTT | HepG2 cells | 4.968 µM
O=C1C[C@H](Cc2cccs2)N1C(=O)NCc1ccc([N+](=O)[O-])cc1 | MTT | COS-7 | >79 µM
CN(C)S(=O)(=O)c1cccc2c(N=NC(=O)c3ccccn3)[nH]c(N)c12 | - | L6 | 297 nM
Cc1csc(CCCCCCCOc2cc(C)nc3ccccc23)n1 | crystal violet | WIS HELA | 25 µg/mL
CN1CCn2c(nc(C(=O)NCc3ccc(F)cc3S(C)(=O)=O)c(O)c2=O)C1(C)C | microscopy | MT-4 | >1 µM
O=C1C[C@H](Cc2nc3ccccc3s2)N1C(=O)NCc1ccc(C(F)(F)F)cc1 | MTT | COS-7 | >25 µM
CC(C)Oc1ccnc(C(=O)N=Nc2[nH]c(N)c3ccccc23)c1 | - | L6 | 699 nM
Cc1cn([C@H]2C[C@H](F)C(COP(=O)([O-])OP(=O)([O-])OC[C@H]3O[C@@H](n4cc(C)c(=O)[nH]c4=S)C[C@@H]3F)O2)c(=S)[nH]c1=O | MTT | CEM-T4 | >100 µM
O=C1C[C@H](Cc2ccco2)N1C(=O)NCc1ccc(C(F)(F)F)cc1 | MTT | COS-7 | >100 µM
Cc1cc(C=O)cc(C)c1Oc1cc(Nc2ccc(C#N)cc2)c2ccccc2n1 | MTT | HuCCA-1 | ≥50 µg/mL

For reference, 6 entries again:

SMILES,method,cells,result
CN1C=CN(c2cccc(N3C=CN(C)C3)n2)C1.[Cl][Au].[Cl][Au],sulforhodamine / absorbance,PC-3,>30 µM
Nc1[nH]c(N=NC(=O)c2ccccn2)c2c1ccc1ccccc12,-,L6,68 nM
Nc1nc2c(ncn2/C=C2/CC23COP(=O)(O)OC3)c(=O)[nH]1,-,MEF,301 µM
CCOP(=O)(CCC(COC)OCn1cnc2c(=O)[nH]c(N)nc21)OCC,visual reading,MRC-5,611 µM
CCOP(=O)(O)CCC(C)OCn1cnc2c(=O)[nH]c(N)nc21,visual reading,MRC-5,>2760 µM
CC(=O)N1CCn2c(nc(C(=O)NCc3ccc(F)cc3)c(O)c2=O)C(N(C)C(=O)C(=O)N(C)C)C1,microscopy,MT-4,>1 µM